## Structure probing of HIV-1 leader RNA with DMS

Values reported by Ye et al. 2022 (doi:10.1038/s41594-022-00746-2).

The 5' region of HIV-1 NL4-3 RNA (positions 1-437):
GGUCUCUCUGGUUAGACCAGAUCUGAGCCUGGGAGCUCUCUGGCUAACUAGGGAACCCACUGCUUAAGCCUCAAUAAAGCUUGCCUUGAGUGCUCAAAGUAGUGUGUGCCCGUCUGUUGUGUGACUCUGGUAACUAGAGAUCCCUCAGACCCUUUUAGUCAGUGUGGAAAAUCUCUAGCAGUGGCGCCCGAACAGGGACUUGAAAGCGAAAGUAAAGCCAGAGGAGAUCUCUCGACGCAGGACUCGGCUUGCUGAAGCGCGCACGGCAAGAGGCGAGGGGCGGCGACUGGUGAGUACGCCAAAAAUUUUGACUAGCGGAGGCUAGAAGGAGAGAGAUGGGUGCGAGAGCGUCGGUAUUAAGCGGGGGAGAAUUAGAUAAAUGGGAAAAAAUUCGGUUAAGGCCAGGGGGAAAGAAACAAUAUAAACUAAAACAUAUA

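Randomly mutated transcripts starting with one, two or three G (1G, 2G, 3G), capped or uncapped, were folded for 30 min at 37 °C. High salt was 300 mM KCl and 5 mM MgCl2, low salt 40 mM KCl and 0.1 mM MgCl2; monomer and dimer were parted on a native gel. Gel slices were treated with 170 mM dimethyl sulfate for 15 min at 37 °C and read by mutational profiling against an ethanol control.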

Scale: normalised reactivity, A and C only; low values point to paired or protected bases, higher values to unpaired ones.
One numbering serves 1G, 2G and 3G.
A position is written with its base.

{"position": "C23", "domain": "TAR", "3G capped low-salt dimer": 1.23, "2G uncapped low-salt dimer": 1.19, "2G uncapped high-salt monomer": 1.34}
{"position": "A34", "domain": "TAR", "3G capped low-salt dimer": 1.03, "2G uncapped low-salt dimer": 1.00, "2G uncapped high-salt monomer": 1.23}
{"position": "C40", "domain": "TAR", "3G capped low-salt dimer": 0.03, "2G uncapped low-salt dimer": 0.04, "2G uncapped high-salt monomer": 0.03}
{"position": "A50", "domain": "TAR", "3G capped low-salt dimer": 0.12, "2G uncapped low-salt dimer": 0.20, "2G uncapped high-salt monomer": 0.12}
{"position": "C56", "domain": "TAR", "3G capped low-salt dimer": 0.03, "2G uncapped low-salt dimer": 0.04, "2G uncapped high-salt monomer": 0.04}
{"position": "C85", "domain": "PolyA", "3G capped low-salt dimer": 0.24, "2G uncapped low-salt dimer": 0.42, "2G uncapped high-salt monomer": 0.31}
{"position": "A98", "domain": "PolyA", "3G capped low-salt dimer": 0.59, "2G uncapped low-salt dimer": 0.27, "2G uncapped high-salt monomer": 0.38}
{"position": "C127", "domain": "PAS", "3G capped low-salt dimer": 0.03, "2G uncapped low-salt dimer": 0.04, "2G uncapped high-salt monomer": 0.03}
{"position": "A138", "domain": "PBS", "3G capped low-salt dimer": 0.11, "2G uncapped low-salt dimer": 0.10, "2G uncapped high-salt monomer": 0.13}
{"position": "C152", "domain": "PBS", "3G capped low-salt dimer": 0.77, "2G uncapped low-salt dimer": 0.87, "2G uncapped high-salt monomer": 0.87}
{"position": "A169", "domain": "PBS", "3G capped low-salt dimer": 0.68, "2G uncapped low-salt dimer": 0.75, "2G uncapped high-salt monomer": 0.66}
{"position": "A171", "domain": "PBS", "3G capped low-salt dimer": 0.39, "2G uncapped low-salt dimer": 0.47, "2G uncapped high-salt monomer": 0.52}
{"position": "C189", "domain": "PBS", "3G capped low-salt dimer": 0.07, "2G uncapped low-salt dimer": 0.13, "2G uncapped high-salt monomer": 0.09}
{"position": "A198", "domain": "PBS", "3G capped low-salt dimer": 0.51, "2G uncapped low-salt dimer": 0.59, "2G uncapped high-salt monomer": 0.60}
{"position": "C229", "domain": "CU", "3G capped low-salt dimer": 0.16, "2G uncapped low-salt dimer": 0.14, "2G uncapped high-salt monomer": 0.27}
{"position": "C260", "domain": "SL1", "3G capped low-salt dimer": 0.36, "2G uncapped low-salt dimer": 0.39, "2G uncapped high-salt monomer": 0.49}
{"position": "A293", "domain": "SL2", "3G capped low-salt dimer": 0.80, "2G uncapped low-salt dimer": 0.89, "2G uncapped high-salt monomer": 0.83}
{"position": "A296", "domain": "SL2", "3G capped low-salt dimer": 0.56, "2G uncapped low-salt dimer": 0.63, "2G uncapped high-salt monomer": 0.63}
{"position": "A305", "domain": "none", "3G capped low-salt dimer": 0.68, "2G uncapped low-salt dimer": 0.73, "2G uncapped high-salt monomer": 0.71}
{"position": "C316", "domain": "SL3", "3G capped low-salt dimer": 0.05, "2G uncapped low-salt dimer": 0.06, "2G uncapped high-salt monomer": 0.11}
{"position": "A324", "domain": "SL3", "3G capped low-salt dimer": 0.07, "2G uncapped low-salt dimer": 0.08, "2G uncapped high-salt monomer": 0.11}
{"position": "A326", "domain": "none", "3G capped low-salt dimer": 0.87, "2G uncapped low-salt dimer": 0.96, "2G uncapped high-salt monomer": 0.91}
{"position": "A336", "domain": "AUG", "3G capped low-salt dimer": 0.56, "2G uncapped low-salt dimer": 0.81, "2G uncapped high-salt monomer": 0.87}
{"position": "C343", "domain": "AUG", "3G capped low-salt dimer": 0.30, "2G uncapped low-salt dimer": 0.37, "2G uncapped high-salt monomer": 0.44}
{"position": "A368", "domain": "none", "3G capped low-salt dimer": 0.85, "2G uncapped low-salt dimer": 0.85, "2G uncapped high-salt monomer": 0.88}
{"position": "A374", "domain": "none", "3G capped low-salt dimer": 0.46, "2G uncapped low-salt dimer": 0.55, "2G uncapped high-salt monomer": 0.53}
{"position": "A388", "domain": "none", "3G capped low-salt dimer": 0.08, "2G uncapped low-salt dimer": 0.08, "2G uncapped high-salt monomer": 0.10}
{"position": "A389", "domain": "none", "3G capped low-salt dimer": 0.15, "2G uncapped low-salt dimer": 0.17, "2G uncapped high-salt monomer": 0.23}
{"position": "A399", "domain": "none", "3G capped low-salt dimer": 0.23, "2G uncapped low-salt dimer": 0.31, "2G uncapped high-salt monomer": 0.26}
{"position": "A411", "domain": "none", "3G capped low-salt dimer": 0.83, "2G uncapped low-salt dimer": 0.87, "2G uncapped high-salt monomer": 0.85}
{"position": "A437", "domain": "none", "3G capped low-salt dimer": 0.03, "2G uncapped low-salt dimer": 0.04, "2G uncapped high-salt monomer": 0.03}

A selection of 2 entries from above:

position,domain,3G capped low-salt dimer,2G uncapped low-salt dimer,2G uncapped high-salt monomer
A50,TAR,0.12,0.20,0.12
A293,SL2,0.80,0.89,0.83